Results: article PMC8703873, “Structure and Activity of a Selective Antibiofilm Peptide SK-24 Derived from the NMR Structure of Human Cathelicidin LL-37” (Pharmaceuticals, 2021)
Non-standard residues stand in square brackets, D forms with d. Residues, ends and D or L forms follow the SMILES beside them. No end group written: not given here. Bip = N[C@@H](Cc1ccc(-c2ccccc2)cc1)C(=O)O

Assay: Circular dichroism: helicity, R1 and R2 in PBS or SDS micelles
Assay type: physicochemical
Details: for helicity in SDS: SDS micelles; for helix% in phosphate buffer: PBS
[1] = 60 mM SDS micelles, 0.5 mM peptide, 10 mM PBS pH 7, 25 °C
[2] = PBS: 0.5 mM peptide in 10 mM PBS, pH 7, 25 °C

CC(C)C[C@H](NC(=O)[C@H](CC(N)=O)NC(=O)[C@H](CCCNC(=N)N)NC(=O)[C@@H](CC(C)C)NC(=O)[C@H](Cc1ccc(-c2ccccc2)cc1)NC(=O)[C@H](CC(=O)O)NC(=O)[C@H](CCCCN)NC(=O)[C@@H](CC(C)C)NC(=O)[C@H](CCCNC(=N)N)NC(=O)[C@H](CCC(N)=O)NC(=O)[C@@H](NC(=O)[C@@H](CC(C)C)NC(=O)[C@H](CCCNC(=N)N)NC(=O)[C@H](CCCCN)NC(=O)[C@H](Cc1ccc(-c2ccccc2)cc1)NC(=O)CN)C(C)C)C(=O)N[C@H](C(N)=O)C(C)C [Peptide 17BIPHE2] (H-G[Bip]KR[dL]VQR[dL]KD[Bip][dL]RNLV-NH2; N-terminus assumed)
R1 (molar ellipticity ratio 192/208) [1]: −3.23
R1 (molar ellipticity ratio 192/208) [2]: 1.18
helicity in SDS (0.5 mM peptide): 25%

GFKRIVQRIKDFLRNLV-NH2 (C-terminus assumed) [GF-17]
R1 (molar ellipticity ratio 192/208) [1]: −2.40
helix% in phosphate buffer (0.5 mM peptide): 33%
R1 (molar ellipticity ratio 192/208) [2]: −1.91

GIKEFKRIVQRIKDFLRNLV-NH2 [GI-20]
R1 (molar ellipticity ratio 192/208) [1]: −2.40
helix% in phosphate buffer (0.5 mM peptide): 75%
R1 (molar ellipticity ratio 192/208) [2]: −2.48

RIVQRIKDFL-NH2 [RI-10]
R1 (molar ellipticity ratio 192/208) [1]: −2.17
R1 (molar ellipticity ratio 192/208) [2]: −8.95
helicity in SDS (0.5 mM peptide): 75%

SKEKIGKEFKRIVQRIKDFLRNLV-NH2 [SK-24]
R1 (molar ellipticity ratio 192/208) [1]: −2.31
helix% in phosphate buffer (0.5 mM peptide): ~ 100%
R1 (molar ellipticity ratio 192/208) [2]: −1.14
